The entries are a selection whose mix differs from that of the whole data set. Activity calls are given as the source filed them.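 How the source made its calls: active means share of bacteria positive for the green fluorescent reporter and its mean brightness both inhibited by 50% or more; inactive means the rest, inconclusive results apart.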

Consider 14 molecules from PubChem BioAssay AID527 (NMMLSC, 2006).

This assay can be described thus: blockers of AIP-driven agr signalling in S. aureus – RNAIII-GFP reporter, flow cytometry, primary screen (AID 527).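 Further: 0% = AIP-stimulated control and 100% = unstimulated bacteria without AIP.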 The following applies: S. aureus RN6390 RNAIII-GFP reporter, AIP-induced, flow cytometry 3 h; at 2 µM; stronger effect = higher value. For orientation: Flow cytometry measures light scatter and fluorescence of single cells or particles in a stream.
On to `Cc1ccc(C)c(NP(C)(=O)Oc2ccccc2)c1` (centres undefined), for which the inhibition (usually the relative decrease from the control value, in per cent) was inactive: 0%.

As for `CCOP1(=S)c2c(C)nn(CCC#N)c2N=C(c2ccccc2F)N1C` (centres undefined), the inhibition is inactive: -2.8%.

`Cc1nn(-c2ccccc2)c2c1P(=O)(N1CCOCC1)N(C)C(c1ccccc1)=N2` (centres undefined): the inhibition was inactive: 5.3%.

Take `Clc1n[nH]nc1-c1nn[nH][15n]1`: the inhibition was inactive: 3%.

Consider `O=C(COc1ccccc1)OC1CN2CCC1CC2` (centres undefined), for which the inhibition was inactive: -8.3%.

As to `COP1(=S)c2c(C)nn(CCC#N)c2N=C(c2ccc(F)cc2)N1C` (centres undefined), the inhibition was inactive: -2%.

Consider `CP(=S)(Nn1cnnc1)Oc1ccccc1` (centres undefined), for which the inhibition is inactive: -3.9%.

On to `CP(=O)(Nc1ccccn1)Oc1ccccc1` (centres undefined), for which the inhibition is inactive: 0.4%.

`Cc1nc2ccc3ccccc3c2o1.O=[N+]([O-])c1cc([N+](=O)[O-])c(O)c([N+](=O)[O-])c1`: the inhibition is inactive: -3.1%.

For `CCc1nc2c(n1)c1c(non1O)c1c2no[n+]1[O-]`, the inhibition was inactive: -0.3%.

In the case of `O=P(Nc1nccs1)(c1ccccc1)c1ccccc1`, the inhibition is inactive: -0.5%.

As to `Cc1ccccc1NP(C)(=O)Nc1ccccc1C`, the inhibition was inactive: -1.6%.

In the case of `CP(=O)(Nc1ccc2c(c1)OCCO2)Oc1ccccc1` (centres undefined), the inhibition was inactive: 0.2%.

Turning to `CN(C)CCOC(=O)C(O)(c1ccccc1)C1CCCCC1` (centres undefined), the inhibition was inactive: -0.5%.
